Tested on: red blood cells (RBCs) of mice
Experiment: Hemolytic assay
Type: cell-based
Conditions: selectivity index, MRSA MIC vs hemolytic activity
Procedure: Fresh red blood cells (RBCs) of mice were washed with 1×PBS buffer and centrifuged 10 min at 3500 rpm for 3 times until the supernatant was clear, then RBCs were diluted into 5% v/v suspension in 1×PBS. 50 μL compounds in PBS were 2-fold serially diluted in a 96-well plate, and incubated with 50 μL RBCs suspension for 1 h at 37° C. The mixture was then centrifuged for 10 min at 3500 rpm. Subsequently, 30 μL of the supernatant was added to 100 μL PBS, then the absorbance of mixture was read on a Biotek Synergy HT plate reader at 540 nm. The hemolytic activity was calculated by the formula % hemolysis=(Abssample−AbsPBS)/(AbsTriton−AbsPBS)×100%. 1% Triton X-100 were used as the positive control and 1×PBS buffer was used as the negative control.

Point of comparison: CCCCCCCCCCCC(=O)N[C@@H](CCCCN)CN1CC(=O)N(c2ccc(OC)cc2)C1=O [Compound 18, (S)—N-(6-amino-1-(3-(4-methoxyphenyl)-2,4-dioxoimidazolidin-1-yl)hexan-2-yl)dodecan amide], “SI (HC50/MIC)” value 8. Against it:
- CCCCCCCCCC(=O)N[C@@H](CCCCN)CN1CC(=O)N(c2cccc(Cl)c2)C1=O [Compound 21, (S)—N-(6-amino-1-(3-(3-chlorophenyl)-2,4-dioxoimidazolidin-1-yl)hexan-2-yl)decanamide] — higher, 16
- CCCCCCCCCCCC(=O)N[C@@H](CCCCN)CN1CC(=O)N(C2CCCCC2)C1=O [Compound 10, (S)—N-(6-amino-1-(3-cyclohexyl-2,4-dioxoimidazolidin-1-yl)hexan-2-yl)dodecanamide] — higher, 16
- CCCCCCCCCCCC(=O)N[C@@H](CCCCN)CN1CC(=O)N(CCCC)C1=O [Compound 6, (S)—N-(6-amino-1-(3-butyl-2,4-dioxoimidazolidin-1-yl)hexan-2-yl)dodecanamide] — lower, 6.4
- CCCCCCCCCCCCCC(=O)N[C@@H](CCCCN)CN1CC(=O)N(CC)C1=O [Compound 3, (S)—N-(6-amino-1-(3-ethyl-2,4-dioxoimidazolidin-1-yl)hexan-2-yl)tetradecanamide] — higher, 14.4
- CCCCCCCCCC(=O)N[C@@H](CCCCN)CN1CC(=O)N(C23CC4CC(CC(C4)C2)C3)C1=O [Compound 13, N—((S)-1-(3-((3R,5R,7R)-adamantan-1-yl)-2,4-dioxoimidazolidin-1-yl)-6-aminohexan-2-yl) decanamide] — higher, 20

— patent publication US10793526B2, “Hydantoin derivative compounds, methods of use and methods of treatment” (University of South Florida, priority 2016, dated 2020)
